Compound potency records, mixed from different reports. Data source: NIAID ChemDB in PubChem.

Shared fields: whole-cell or culture tests; agent: Candida albicans; read-out: MIC80

a–b is a range or a potency band. Rows are shuffled and stem from different studies. MIC50, MIC90 and the like: level of inhibition, or share of isolates inhibited. Blank or dashed fields: not listed here.

compound	strain or isolate	read by	result
CCCC(=O)OC1CCN(CC(O)(Cn2cncn2)c2ccc(F)cc2F)CC1	Y0109	broth dilution	0.153 µM
O=C1S/C(=C\c2ccncc2)C(=O)N1CC(O)(Cn1nccn1)c1ccc(F)cc1F	CaCYP51	-	4.51 µg/mL
CCCCN(Cc1cn(Cc2ccc(C)cc2)nn1)CC(O)(Cn1cncn1)c1ccc(F)cc1F	SC5314	-	<0.125 µg/mL
C=C(CCCCCNC1NCCC2c3ccccc3CCN12)C(C)C	NFI0124	-	16 µg/mL
COc1ccc(/C(CCn2ccnc2)=N/OC(=O)c2ccc(Cl)cc2)cc1	-	agar diffusion	0.3257 µg/mL
CCCCN(Cc1cn(Cc2ccccc2Br)nn1)CC(O)(Cn1cncn1)c1ccc(F)cc1F	Y0109	-	0.5 µg/mL
CCC(C)c1ccc(Cn2cc(CN3CCN([C@H](C)[C@](O)(Cn4cncn4)c4ccc(F)cc4F)CC3)c3ccccc32)cc1	ATCC 90028	resazurin	4 µg/mL
Oc1ccc2c(c1)CCc1ccc(cc1)Oc1cc(ccc1O)CCc1cccc(O)c1-2	CA10	broth dilution	16 µg/mL
N#Cc1ccc(/C=C2\SC(=O)N(CC(O)(Cn3nccn3)c3ccc(F)cc3F)C2=O)cc1	CaCYP51	-	0.53 µg/mL
COc1cc(/C=C/c2ccc(O)cc2)cc(OC)c1	0304103	broth dilution	32 µg/mL
CCCCN(Cc1cn(Cc2ccc([N+](=O)[O-])cc2)nn1)CC(O)(Cn1cncn1)c1ccc(F)cc1F	Y0109	-	4 µg/mL
O=C(O/N=C(\CCn1ccnc1)c1ccccc1)c1ccc(C(F)(F)F)cc1	-	agar diffusion	0.6454 µg/mL
CCCCN(Cc1cn(Cc2ccccc2[N+](=O)[O-])nn1)CC(O)(Cn1cncn1)c1ccc(F)cc1F	SC5314	-	2 µg/mL
ClCCl	-	-	>250 µg/mL
CC(C)(C)C(=O)OC1CCN(CC(O)(Cn2cncn2)c2ccc(F)cc2F)CC1	Y0109	broth dilution	0.148 µM
O=C1S/C(=C\c2cccnc2)C(=O)N1CC(O)(Cn1nccn1)c1ccc(F)cc1F	CaCYP51	-	0.57 µg/mL
CCCCN(Cc1cn(Cc2ccccc2F)nn1)CC(O)(Cn1cncn1)c1ccc(F)cc1F	Y0109	-	16 µg/mL
Cc1ccc(/C(CCn2ccnc2)=N/OC(=O)c2ccc(Cl)cc2)cc1	-	agar diffusion	0.1699 µg/mL
CC(O)Cn1cc(CN2CCN([C@H](C)[C@](O)(Cn3cncn3)c3ccc(F)cc3F)CC2)c2cccc(Cl)c21	ATCC 90028	resazurin	1 µg/mL
CCCCN(Cc1cn(Cc2ccc(Cl)cc2Cl)nn1)CC(O)(Cn1cncn1)c1ccc(F)cc1F	SC5314	-	4 µg/mL
C[C@@H](N1CCN(Cc2cn(Cc3ccc(F)cc3F)c3ccc(C#N)cc23)CC1)[C@](O)(Cn1cncn1)c1ccc(F)cc1F	ATCC 64548	resazurin	0.125 µg/mL
O=C(O/N=C(\CCn1ccnc1)c1ccccc1)c1ccc(Cl)cc1	-	agar diffusion	0.0054 µg/mL
CCOC(C)=O	-	-	>250 µg/mL
CCCCCCCCNC1NCCC2c3ccccc3CCN12	NFI2103	-	16 µg/mL
CC(O)Cc1ccc(Cn2cc(CN3CCN([C@H](C)[C@](O)(Cn4cncn4)c4ccc(F)cc4F)CC3)c3cccc(F)c32)cc1	ATCC MYA-1003	resazurin	>128 µg/mL
CCCCN(Cc1cn(Cc2ccc(Br)cc2)nn1)CC(O)(Cn1cncn1)c1ccc(F)cc1F	Y0109	-	1 µg/mL
O=C1S/C(=C\c2ccc(Br)cc2)C(=O)N1CC(O)(Cn1nccn1)c1ccc(F)cc1F	CaCYP51	-	0.029 µg/mL
OC(CN1CCN(c2ccc(OCc3ccncc3)cc2)CC1)(Cn1cncn1)c1ccc(F)cc1F	304055	-	2 µg/mL
CCCCN(Cc1cn(Cc2cccc(Br)c2)nn1)CC(O)(Cn1cncn1)c1ccc(F)cc1F	Y0109	-	1 µg/mL
C=C(CCCCCNC1NCCC2c3ccc(OC)cc3CCN12)C(C)C	NFI2103	-	8 µg/mL
O=C(/C=C/c1ccccc1F)OC1CCN(CC(O)(Cn2cncn2)c2ccc(F)cc2F)CC1	Y0109	broth dilution	0.032 µM
NC(N)=NCCc1ccc(OCCC(c2ccccc2)(c2ccccc2)c2ccccc2)cc1	CAF2-1	-	5–10 µg/mL
COc1ccc(/C=C2\SC(=O)N(CC(O)(Cn3nccn3)c3ccc(F)cc3F)C2=O)cc1	CaCYP51	-	1.06 µg/mL
C[C@@H](N1CCN(Cc2cn(Cc3ccc(Cl)cc3Cl)c3cc(Cl)ccc23)CC1)[C@](O)(Cn1cncn1)c1ccc(F)cc1F	ATCC 64548	resazurin	0.125 µg/mL
CCCCCCCC(=O)OC1CCN(CC(O)(Cn2cncn2)c2ccc(F)cc2F)CC1	Y0109	broth dilution	0.009 µM
COc1ccc2c(c1)CCN1C(NCCCCCCC(C)C)NCCC21	NFI2103	-	4 µg/mL
O=C(CC1=Nc2ccccc2C1)OC1CCN(CC(O)(Cn2cncn2)c2ccc(F)cc2F)CC1	Y0109	broth dilution	0.126 µM
O=C1S/C(=C\c2ccc(F)cc2F)C(=O)N1CC(O)(Cn1nccn1)c1ccc(F)cc1F	CaCYP51	-	1.04 µg/mL
Cc1ccc(C(=O)O/N=C(\CCn2ccnc2)c2ccccc2)cc1	-	agar diffusion	0.3752 µg/mL
C[C@@H](N1CCN(Cc2cn(Cc3ccc(F)cc3F)c3c(C#N)cccc23)CC1)[C@](O)(Cn1cncn1)c1ccc(F)cc1F	ATCC 64548	resazurin	1 µg/mL
O/N=C(/CCn1ccnc1)c1ccc(Cl)cc1	-	agar diffusion	0.5019 µg/mL
O=C(/C=C/c1ccc(Cl)cc1)OC1CCN(CC(O)(Cn2cncn2)c2ccc(F)cc2F)CC1	Y0109	broth dilution	0.124 µM
C[C@@H](N1CCN(Cc2cn(Cc3ccc(Cl)cc3)c3ccccc23)CC1)[C@](O)(Cn1cncn1)c1ccc(F)cc1F	ATCC 64548	resazurin	0.125 µg/mL

The last 4 rows once more:

compound	strain or isolate	read by	result
C[C@@H](N1CCN(Cc2cn(Cc3ccc(F)cc3F)c3c(C#N)cccc23)CC1)[C@](O)(Cn1cncn1)c1ccc(F)cc1F	ATCC 64548	resazurin	1 µg/mL
O/N=C(/CCn1ccnc1)c1ccc(Cl)cc1	-	agar diffusion	0.5019 µg/mL
O=C(/C=C/c1ccc(Cl)cc1)OC1CCN(CC(O)(Cn2cncn2)c2ccc(F)cc2F)CC1	Y0109	broth dilution	0.124 µM
C[C@@H](N1CCN(Cc2cn(Cc3ccc(Cl)cc3)c3ccccc23)CC1)[C@](O)(Cn1cncn1)c1ccc(F)cc1F	ATCC 64548	resazurin	0.125 µg/mL